Results of unrelated studies side by side (data: NIAID ChemDB).

All rows: tests on isolated targets; species: Herpes simplex virus 1; protein: Thymidine kinase

ICn is the concentration giving n% inhibition. Neighbouring rows are from separate reports. Percent inhibition refers to the dose given; in toxicity tests it is the harm to the cells.

C/C=C/c1cn([C@H]2C[C@H](O)[C@@H](CO)O2)c(=O)[nH]c1=O ; strain: C42 ; measure: inhibition ; dose: 10 µM ; result: 68%
Nc1nc2c(ncn2CCCC(CO)CO)c(=O)[nH]1 ; strain: C42 ; measure: Ki ; result: 1.5 µM
C#Cc1cn([C@@H]2O[C@H](CO)[C@@H](O)[C@@H]2F)c(=O)nc1N ; strain: F ; measure: inhibition ; dose: 200 µM ; result: 47.7%
Nc1nc2c(ncn2CCCCO)c(=O)[nH]1 ; measure: Ki ; result: 2.06 µM
C[C@@H](O)Cn1cnc2c(=S)nc[nH]c21 ; measure: Ki ; result: 1300 µM
Nc1nc(Cl)c2ncn([C@@H](CCO)SCCO)c2n1 ; measure: Ki ; result: 667 µM
CC(C)C(=O)NC[C@H]1O[C@@H](n2cc(I)c(=O)[nH]c2=O)C[C@@H]1O ; measure: IC50 ; result: 55 µM
O=c1[nH]c(=O)n([C@@H]2O[C@H](CO)[C@@H](O)[C@@H]2F)cc1/C=C/I ; strain: F ; measure: inhibition ; dose: 200 µM ; result: 64.2%
Nc1nc2c(ncn2CC[C@@H](O)CO)c(=O)[nH]1 ; measure: Ki ; result: 1.47 µM
C[C@@H](O)Cn1cnc2c(N)ncnc21 ; measure: Ki ; result: 5300 µM
C/C=C/c1cn([C@H]2C[C@H](O)[C@@H](CO)O2)c(=O)[nH]c1=O ; measure: Ki ; result: 0.2 µM
C[C@@H](O)Cn1cnc2c(Cl)ncnc21 ; measure: Ki ; result: 2100 µM
COC(=O)CC(SCCO)n1cc(C)c(=O)[nH]c1=O ; measure: Ki ; result: 406 µM
Nc1nc2c(ncn2C/C=C\CO)c(=O)[nH]1 ; strain: C42 ; measure: Ki ; result: 7 µM
C/C=C/c1cn([C@@H]2O[C@H](CO)[C@@H](O)[C@@H]2O)c(=O)[nH]c1=O ; strain: 91075 ; measure: inhibition ; dose: 10 µM ; result: <0%
CS(=O)(=O)NC[C@H]1O[C@@H](n2cc(I)c(=O)[nH]c2=O)C[C@@H]1O ; measure: IC50 ; result: >200 µM
O=c1[nH]c(=O)n([C@@H]2O[C@H](CO)[C@@H](O)[C@@H]2F)cc1/C=C/Br ; strain: F ; measure: inhibition ; dose: 200 µM ; result: 73%
CC(=O)NC[C@H]1O[C@@H](n2cc(C)c(=O)[nH]c2=O)C[C@@H]1O ; measure: IC50 ; result: >200 µM
Nc1nc(=O)n([C@@H]2O[C@H](CO)[C@@H](O)[C@@H]2F)cc1/C=C/C(=O)O ; strain: F ; measure: inhibition ; dose: 200 µM ; result: 4.3%
Cc1cn([C@H]2C[C@H](O)[C@@H](CNS(=O)(=O)c3ccc([N+](=O)[O-])cc3)O2)c(=O)[nH]c1=O ; measure: IC50 ; result: 127 µM
Nc1nc2c(ncn2[C@@H](CCO)OCCO)c(=O)[nH]1 ; measure: Ki ; result: 1311 µM
CC(C)CC(=O)NC[C@H]1O[C@@H](n2cc(I)c(=O)[nH]c2=O)C[C@@H]1O ; measure: IC50 ; result: 68 µM
CCc1cn([C@@H]2O[C@H](CO)[C@@H](O)[C@@H]2F)c(=O)nc1N ; strain: F ; measure: inhibition ; dose: 200 µM ; result: 24.3%
C#C[C@H]1O[C@@H](n2cc(C)c(=O)[nH]c2=O)C[C@@H]1O ; strain: B3 ; measure: IC50 ; result: 6 µM